Pooled drug test results. Numbers come from NIAID ChemDB, via PubChem.

Common to all: target-level tests; organism: Hepatitis C virus; target: Nonstructural protein 5B; endpoint: IC50

Two numbers with a dash give a range or band. ICn: concentration for n% inhibition. Rows are shuffled and stem from different studies. An empty or dashed field is not shown.

smiles,strain or isolate,read by,conditions,value
O=C(Nc1ccc2[nH]ncc2c1)c1cc(N2CCNCC2)c(F)cc1F,-,-,-,1–10 µg/mL
C[C@@]1(O)[C@H](O)[C@@H](COP(=O)(O)OP(=O)(O)OP(=O)(O)O)O[C@H]1c1ccc2c(N)ncnn12,GT1a,nucleotide incorporation,-,0.57 µM
Cn1c(-c2ccoc2)c(C2CCCCC2)c2ccc(C(=O)O)cc21,-,-,-,0.49 µM
Cc1nc(N)c2ncn([C@@H]3O[C@H](COC(=O)c4ccc(S(=O)(=O)F)cc4)[C@@H](O)[C@H]3O)c2n1,-,-,-,>1000 µM
Nc1ncnc2c1ncn2[C@@H]1O[C@H](COC(=O)c2ccc(S(=O)(=O)F)cc2)[C@@H](O)[C@H]1O,-,-,-,>1000 µM
Cc1cc(SC2=C(O)CC(CCc3ccc(O)cc3)(C3CCCC3)OC2=O)c(C(C)(C)C)cc1N,-,-,-,<1 µM
O=C(O)c1ccc2c(C3CCCCC3)c(-c3ccoc3)n(CC(=O)N3CCC(N4CCCC4)CC3)c2c1,-,-,-,0.015 µM
CCOC(=O)c1c(NC(=O)NS(=O)(=O)c2ccc(C#N)cc2)sc2c1CCC(C)(C)C2,-,-,-,0.4 µM
COc1cc(OC)c(CCC2(C3CCCC3)CC(O)=C(Sc3n[nH]c(=O)n3C)C(=O)O2)cc1Cl,-,-,-,<1 µM
O=C(OC[C@H]1O[C@@H](n2cnc3c(=O)[nH]cnc32)[C@H](O)[C@@H]1O)c1ccc(S(=O)(=O)F)cc1,-,-,-,280 µM
O=C1CC(=O)OC(CCc2ccc(OC3CCCC3)c(F)c2)(C2CCCC2)C1,-,-,-,1–10 µM
CC1=NCCN1c1cc(C(=O)Nc2ccc3[nH]ncc3c2)c(F)cc1F,-,-,-,1–10 µg/mL
COC(=O)c1ccc(CCC2(C3CCCC3)CC(=O)CC(=O)O2)cc1,-,-,-,1–10 µM
O=C(O)/C=C/c1ccc(NC(=O)C2(NC(=O)c3ccc4c(c3)nc(-c3ccoc3)n4C3CCCCC3)CCC2)cc1,-,-,-,0.055 µM
O=C(Nc1ccc2cn[nH]c2c1)c1cc(C2CCNCCN2)c(F)cc1F,-,-,-,1–10 µg/mL
O=c1ccn([C@@H]2O[C@H](CO)[C@@H]3C[C@@]32F)c(=O)[nH]1,-,nucleotide incorporation,genotype 1b,>100 µM
O=C(Nc1ccc2[nH]ncc2c1)c1cc(N2CCN(CCO)CC2)c(F)cc1F,-,-,-,1–10 µg/mL
O=C(O)c1ccc2c(C3CCCCC3)c(-c3ccoc3)[nH]c2c1,-,-,-,1.4 µM
C[C@@]1(O)[C@H](O)[C@@H](COP(=O)(O)OP(=O)(O)OP(=O)(O)O)O[C@@]1(C#N)c1ccc2c(N)ncnn12,1b Con1,radiometric,-,0.39 µM
Nc1ncnc2c1ccn2[C@@H]1O[C@H](CO)[C@@H](O)[C@H]1O,GT1b,-,-,0.3 µM
COc1cc(F)c(CCC2(C3CCCC3)CC(=O)CC(=O)O2)cc1F,-,-,-,1–10 µM
C/C=C/C/C=C/CCC(=O)[C@H]1O[C@H]1C(N)=O,-,-,-,>500 µM
O=C(Nc1ccc2[nH]ncc2c1)c1cc(C2CCNCCN2)c(F)cc1F,-,-,-,1–10 µg/mL
CCSc1ccc(CCC2(C3CCCC3)CC(=O)CC(=O)O2)cc1,-,-,-,1–10 µM
CN1CCN(c2cc(C(=O)Nc3ccc4cn[nH]c4c3)c(F)cc2F)CC1,-,-,-,>10 µg/mL
Cc1cc(SC2=C(O)CC(CCc3ccc(O)cc3)(C3CCCCC3)OC2=O)c(C(C)(C)C)cc1OS(=O)(=O)c1ccccc1,-,-,-,10–50 µM

The first 3 rows once more:

smiles,strain or isolate,read by,conditions,value
O=C(Nc1ccc2[nH]ncc2c1)c1cc(N2CCNCC2)c(F)cc1F,-,-,-,1–10 µg/mL
C[C@@]1(O)[C@H](O)[C@@H](COP(=O)(O)OP(=O)(O)OP(=O)(O)O)O[C@H]1c1ccc2c(N)ncnn12,GT1a,nucleotide incorporation,-,0.57 µM
Cn1c(-c2ccoc2)c(C2CCCCC2)c2ccc(C(=O)O)cc21,-,-,-,0.49 µM